From PubChem BioAssay AID504648 (National Center for Advancing Translational Sciences (NCATS), 2011)
Only a part is listed here, and it is no random draw. Records with an inconclusive call do not appear. Calls of active or inactive are those of the source. Calls follow the shape of the dose curve; as a rule, active = well fitted inhibition curve with a large enough effect; inconclusive = small, poorly fitted or top-dose-only effect, or effect the other way, or another doubt; inactive = no such curve, though single readings can be large or run the other way.
Potency is read from the fitted curve at half-maximal effect.

Assay: Nrf2 qHTS screen for inhibitors: counterscreen for cytotoxicity
Conditions: A549 ARE-Fluc cells, CellTiter-Fluor viability, 18-24 h
Description: NIH Molecular Libraries Probe Production Network [MLPCN]
NIH Chemical Genomics Center [NCGC]
Assay Provider: Shyam Biswal, Johns Hopkins University
Nrf2 is a transcription factor that maintains cellular redox homoestasis and protects cells from xenobiotics. Nrf2 binds to the antioxidant response element (ARE) to induce gene expression of a broad spectrum of genes that encode for antioxidants. […] Finding a small molecule that act as an inhibitor of Nrf2 function would represent a novel therapeutic target that could lead to improvement in survival of patients undergoing chemo- and/or radio- therapy.
So here we implemented a counterscreen to weed out the cytotoxic compounds.
1. […]
A concentration-response assay was performed with A549 ARE_Fluc cells which are suspended in 5% FBS OPTI-MEM. […] The plate is then incubated at 37deg C at 5% CO2 for 30 minutes before they are read on the ViewLux (Perkin Elmer) for a fluorescent read Ex=405(10)/Em=525(10) for a 3 second exposure, 2x binning, and high gain. […] Afterwards another ViewLux read is performed using the clear filter to get a luminescent read with the settings of 40 second exposure, 2x binning, and high gain. Cytotoxicity is assessed through the first fluorescent read and then biochemical activity against Nrf2 is measured in the luminescent read.
In the case of `CC(=O)OCC12CC(OC(=O)CC(C)C)C(C)=CC1OC1C(O)C(OC(C)=O)C2(C)C12CO2` (stereo unspecified), the Potency is reported as active: 16.4 nM.
